{"sequences": {"note": "Sequences of proteins named here, by UniProt entry; tags and fusion partners are left off.", "UniProt Q15717, whole entry": "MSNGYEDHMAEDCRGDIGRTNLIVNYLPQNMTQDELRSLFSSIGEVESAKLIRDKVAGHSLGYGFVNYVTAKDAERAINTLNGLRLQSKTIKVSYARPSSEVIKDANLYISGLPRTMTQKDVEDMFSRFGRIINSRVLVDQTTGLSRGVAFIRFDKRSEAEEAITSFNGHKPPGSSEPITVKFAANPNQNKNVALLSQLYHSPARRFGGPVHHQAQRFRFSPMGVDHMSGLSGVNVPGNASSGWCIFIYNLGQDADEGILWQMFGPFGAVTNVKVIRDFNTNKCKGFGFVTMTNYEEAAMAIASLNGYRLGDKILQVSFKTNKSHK"}, "source": "patent US20100260717", "target": "HuR (ELAVL1) (Homo sapiens) (UniProt Q15717)", "experiment": "binding assay", "conditions": "MITOMI; inhibited by ATA, not by most hits at 0.1 mM; protein translated in vitro; label: Cy5", "note": "Construct, isoform or probe ends are uncertain for at least one entry."}
{"sequence": "ACUCGAGCGGCCGCCACUGUGCUGGAUAUCGAUCCAUGGCGCGCCCUUUGGUUUUUCUUUGAGGUUUAGGAUUCGUGCUCAUGGUGCACGGUCUACGAGACCUCCCGGGGCACUCGCAAGCACCCUAUCAGGCAGUACCACAAGGCCUUUCGCGACCCAACACUACUCGGCUAGCAGUCUCGCGGGGGCACGCCCAAAUCUCCAGGCAUUGAGCGGGUUGAUCCAAGAAAGGACCCGGUCGUCCUGGCAAUUCCGGUGUACUCACCGGUUCCGCAGACCACUAUGGCUCUCCCGGGAGGGGGGGUCCUGGAGGCUGCACGACACUCAUACUAACGCCAUGGCUAGACGCUUUCUGCGUGAAGACAGUAGUUCCUCACAGGGGAGUGAUCUAUGGUGGAGUGUCGCCCCCAAUCGGGGGCUGGCUAUAGUGAGUCGUAUUAUGAUAUCUGCAGAAUUCCACCACACUGGACUAGUGGAUCCGAGCUCGGUACCAAGCUUAAGUUUAAACGCUAGCCAGCUUGGGUCU [HCV 3' negative terminus]", "values": [{"measurement": "binding result", "value": "binds"}]}
